Assay results: patent US20090053187A1 (priority 2005, published 2009)

Tested on: Bacillus anthracis 71/12 (Tsenkovsky vaccine II)
Design: species or system outbred white mice
Conditions: mouse, in vivo

bovine serum albumin
Death of animal on day 2: 2 and 1
Death of animal on day 3: 1 and 2
Death of animal on day 6: 1 and 2
Number of perished/Number of infected: 5/5
mortality: 100%

“And” between values parts separate entries of the source, which are not always exact repeats. Identical values can stand only once.
